A mixed list of measured activities; the numbers were collected in NIAID ChemDB.

All rows: whole-cell or culture tests; agent: Varicella zoster virus; measure: EC50

ECn is the concentration giving n% inhibition of infection, replication or growth. Blank or dashed fields: not listed here. Rows are shuffled and stem from different studies. a–b is a range or a potency band.

smiles	strain or isolate	cell line	read by	value
Nc1nc2c(ncn2CCC(CO)CO)c(=O)[nH]1	-	-	-	1–10 µM
CC#Cc1cn([C@@H]2O[C@H](COP(=O)(O)OCC(F)(F)F)[C@@H](O)[C@@H]2O)c(=O)[nH]c1=O	G-31	MRC-5	plaque count	>100 µM
Nc1nc2ncn(COCCCl)c2c(=O)[nH]1	YS/R (TK-)	VERO	cytopathic effect	>128 µg/mL
Nc1ncnc2c1ncn2CCOCP(=O)(O)O	Oka CF1742-resistant	HEL	cytopathic effect	13.7 µM
Nc1ncnc2c1ncn2OCCOCP(=O)(O)O	ELLEN	MRC-5	plaque count	>300 µM
Cc1cccc2c1OP(=O)(OC[C@H]1O[C@@H](n3cc(/C=C/Br)c(=O)[nH]c3=O)C[C@@H]1OC(=O)[C@@H]1CCCN1)OC2	OKA	HELF	plaque count	0.032 µg/mL
Nc1nc2c(ncn2[C@@H]2O[C@H](CO)[C@H]2CO)c(=O)[nH]1	13 isolates	HEL	plaque count	0.24 µM
COC(=O)C(C)NOP(OC[C@H]1C/C1=C/n1cnc2c(N)[nH]c(=O)nc21)Oc1ccccc1	-	HFF	cytopathic effect	>205 µM
O=C(O)P(=O)(O)O	BVDU-resistant	HEL	plaque count	14.8 µg/mL
Nc1ccn([C@@H]2C[C@@H](O)[C@H](CO)O2)c(=O)n1	-	HFF	-	>100 µM
Nc1ncnc2c1ncn2CCOCP(=O)(O)O	YS	-	cytopathic effect	38 µM
CCC(=O)O[C@H]1C[C@H](n2cc(/C=C/Br)c(=O)[nH]c2=O)O[C@@H]1COP1(=O)OCc2cccc(C)c2O1	OKA	HELF	plaque count	0.03 µg/mL
Nc1ncnc2c1ncn2OC(/C=C/P(=O)(O)O)CO	ELLEN	MRC-5	plaque count	>300 µM
Cc1cccc2c1OP(=O)(OC[C@H]1O[C@@H](n3cc(/C=C/Br)c(=O)[nH]c3=O)C[C@@H]1OC(=O)[C@@H](C)N)OC2	OKA	HELF	plaque count	0.016 µg/mL
Nc1nc2c(ncn2[C@@H]2C=C[C@H](CO)CC2)c(=O)[nH]1	-	-	plaque count	1–10 µM
CCCCCC(=O)O[C@H]1C[C@H](n2cc(/C=C/Br)c(=O)[nH]c2=O)O[C@@H]1COP1(=O)OCc2cccc(C)c2O1	OKA	HELF	plaque count	0.067 µg/mL
O=c1[nH]c(=S)n([C@@H]2O[C@H](CO)[C@@H](O)[C@@H]2O)cc1I	HOSEN	MRC-5	plaque count	36.3 µM
CC#Cc1cn([C@@H]2O[C@H](CO)[C@@H](O)[C@@H]2O)c(=O)[nH]c1=O	G-31	MRC-5	plaque count	2 µM
Nc1ncnc2c1ncn2CC/C=C\P(=O)(O)O	ELLEN	MRC-5	plaque count	>300 µM
CCC#Cc1ccc2c(c1)c(=O)c(C(=O)NCc1ccc(Cl)cc1)nn2C	-	-	-	<20 µM
Cc1cccc2c1OP(=O)(OC[C@H]1O[C@@H](n3cc(/C=C/Br)c(=O)[nH]c3=O)C[C@@H]1OC(=O)[C@@H](N)C(C)C)OC2	OKA	HELF	plaque count	0.026 µg/mL
Cc1cn([C@@H]2C[C@@H](O)[C@H](CO)O2)c(=O)[nH]c1=O	-	HFF	-	4.52 µM
CC#Cc1cn([C@@H]2O[C@H](COP(=O)(O)Oc3ccccc3)[C@@H](O)[C@@H]2O)c(=O)[nH]c1=O	G-31	MRC-5	plaque count	>100 µM
Nc1nc2c(ncn2OC(/C=C/P(=O)(O)O)CO)c(=O)[nH]1	ELLEN	MRC-5	plaque count	>300 µM
CC#Cc1cn([C@@H]2O[C@H](COP(=O)(O)Oc3ccc(Cl)cc3)[C@@H](O)[C@@H]2O)c(=O)[nH]c1=O	G-31	MRC-5	plaque count	100 µM
Cc1cn([C@@H]2O[C@H](CO)[C@@H](O)[C@@H]2O)c(=S)[nH]c1=O	HOSEN	MRC-5	plaque count	224 µM
CC#Cc1cn([C@@H]2O[C@H](COP(=O)(O)OCC)[C@@H](O)[C@@H]2O)c(=O)[nH]c1=O	G-31	MRC-5	plaque count	>100 µM
O=C(O)CP(=O)(O)O	PFA-resistant/B	HEL	plaque count	32.4 µg/mL
Nc1nc2c(ncn2C[C@]2(CO)C[C@H]2CO)c(=O)[nH]1	-	-	-	0.1–1 µM
Nc1nc2c(ncn2[C@H]2C=C[C@@H](CO)CC2)c(=O)[nH]1	-	-	plaque count	1–10 µM
Nc1ccn(OC(/C=C/P(=O)(O)O)CO)c(=O)n1	ELLEN	MRC-5	plaque count	>300 µM
O=C(Nc1ncc([N+](=O)[O-])s1)c1ccccc1O	-	-	cytopathic effect	4 µg/mL
C[C@H](Cn1cnc2c(NC3CC3)ncnc21)OCP(=O)(O)O	OKA (TK+)	-	-	0.009 µg/mL
CC#Cc1cn([C@@H]2O[C@H](COP(=O)(O)Oc3c(C)cccc3C)[C@@H](O)[C@@H]2O)c(=O)[nH]c1=O	G-31	MRC-5	plaque count	>100 µM
Cc1cccc2c1OP(=O)(OC[C@H]1O[C@@H](n3cc(/C=C/Br)c(=O)[nH]c3=O)C[C@@H]1O)OC2	OKA	HELF	plaque count	0.037 µg/mL
CC#Cc1cn([C@@H]2O[C@H](COP(=O)(NCCC)Oc3ccccc3)[C@@H](O)[C@@H]2O)c(=O)[nH]c1=O	G-31	MRC-5	plaque count	>100 µM
Nc1nc(Cl)nc2c1ncn2/C=C1\CC1CO	-	HFF	cytopathic effect	179 µM
Nc1nc2c(ncn2C=C2CC2CO)c(=O)[nH]1	-	-	plaque count	10–100 µM
Cc1cn([C@H]2C[C@H](O)[C@@H](CO)O2)c(=O)[nH]c1=O	HOSEN	MRC-5	plaque count	>413 µM
Nc1ncnc2ncn(COCCCl)c12	YS (TK+)	VERO	cytopathic effect	>128 µg/mL
Nc1ncnc2c1ncn2OCC/C=C/P(=O)(O)O	ELLEN	MRC-5	plaque count	>300 µM
C[C@H](COc1cc(N)nc(N)n1)OCP(=O)(O)O	OKA	-	cytopathic effect	17 µM
COC(=O)[C@H](C)NP(=O)(OCC1C/C1=C\n1cnc2c(N)ncnc21)Oc1ccccc1	-	HFF	plaque count	111 µM
Nc1ncnc2c1ncn2C[C@@H](CO)OCP(=O)(O)O	OKA	-	cytopathic effect	0.07 µM
CC(=O)CCC(=O)O[C@H]1C[C@H](n2cc(/C=C/Br)c(=O)[nH]c2=O)O[C@@H]1COP1(=O)OCc2ccccc2O1	OKA	HELF	plaque count	0.046 µg/mL
COC(=O)[C@H](C)NP(=O)(OC[C@H]1C/C1=C/n1cnc2c(=O)[nH]c(N)nc21)Oc1ccccc1	-	HFF	plaque count	8.1 µM
Nc1ccn([C@@H]2C[C@@H](O)[C@H](CO)O2)c(=O)n1	-	HFF	-	>100 µM
O=C(NCc1ccc(Cl)cc1)c1n[nH]c2ccccc2c1=O	-	-	-	1.1 µM
Nc1nc(NC2CC2)c2ncn(C=C3CC3CO)c2n1	-	HFF	plaque count	13.2 µM

Repeating the final 3 entries:

smiles	strain or isolate	cell line	read by	value
Nc1ccn([C@@H]2C[C@@H](O)[C@H](CO)O2)c(=O)n1	-	HFF	-	>100 µM
O=C(NCc1ccc(Cl)cc1)c1n[nH]c2ccccc2c1=O	-	-	-	1.1 µM
Nc1nc(NC2CC2)c2ncn(C=C3CC3CO)c2n1	-	HFF	plaque count	13.2 µM